Measurements reported in the supplement of paper PMC9931576.
Human monoclonal antibodies against the spike receptor-binding domain (heavy:light variable regions). IC50 against pseudoviruses bearing the spike of naturally observed variants; lower = stronger; >10 µg/ml means not reached at the top dose. No active / inactive call. The stated detection limit is 0.0005 µg/ml; values near or below 0.001 µg/ml lie at the floor of the assay.

B1: BD55-5930 (protein)
chain 1: EVQLVESGGGLVQPGGSLRLSCAASGFSFSAFGMNWVRQAPGKGLEWVSYISGSSSAIYYADSVRGRFTISRDNAKNSLFLQMNSLRAEDTAVYYCAREGQQWLVLTNWRGPFDPWGQGTLVTVSS
chain 2: EIVLTQSPGTLSLSPGERATLSCRASQSLSSIINLAWYQQKPGQAPRLLIYGASSRATGIPDRFSGSGSGADFTLTISRLEPEDFAVYYCQQYGGSPPFTFGPGTKVDIK
B2: BD55-5933 (protein)
chain 1: EVQLVESGGGLVKPGGSLRLSCEVSGFIFSSYSINWVRQAPGKGLEWVSSISGSSTFKFSAESVEGRFTISRDNARNSAYLQMNSLRVEDTAVYYCATNYVSLGSHVDAEYFHHWGQGTLVTVSS
chain 2: EIVLTQSPAILSLSPGERATLSCRASQSIGNFLAWYQQKPGQAPRLLIYDASIRATGIPARFSGSGSGTDFTLTISSLEPEDFAVYYCQQRNTWPPLTFGGGTKVEIK
B3: BD55-5935 (protein)
chain 1: QVQLVQSGGEVKKPGASVKVSCKASGNTFTRYGISWVRQAPGQGLEWMAWISVHNGNTNYAQKFQDRVTMTTETSTNTVYMELRSLRSDDTAVYYCARLTYYYDSSGYSELQMYYFDNWGQGTLVTVSS
chain 2: DIQMTQSPSSLSASVGDRVTISCRASQSISTYLHWYQHKPGRAPQLLIFAASSLQSGVPSRFSGSGSGTDFTLTISSLRPEDSATYYCQQSYSTFLTFGGGTKVEIK
B4: BD55-5940 (protein)
chain 1: QVQLQESGPGLVKPSQTLSLTCSVSGGSITGGIYYWSWIRQPAGKGLEWIGHVDSSGSTNYNPSLKSRVSISVLTSKNEFSLQVSSATAADTAVYYCARDSWTSTPLGYYYYMDVWGKGTTVTVSS
chain 2: DVLMTQSPSTLSASVGDRVTITCRASQSVNTWLAWYQQKPGKAPKLLIYKASSLESGVPSRFSGSGSGTEFTLTISSLQPDDFATYYCQQFNGFLYTFGQGTKLEIK
B5: BD55-5943 (protein)
chain 1: QVQLVQSGAEVKKPGSSVKVSCKASGGTFSSYATTWVRQAPGQGLEWMGGLIPMFGTANYAQKFQGRVTITADESTSTAYMELRSLRSEDTAVYYCARWAVLLWFEEGRDFYGLDVWGQGTTVTVSS
chain 2: DIQMTQSPSSLSASVGDRVTITCRASQSISNYLNWYQQKPGIAPKLLIYATSSLQSGVPSRFSGSGSGTEFTLTITGLQPEDFETYYCQQSDSTPYTFGQGTKLEIK
B6: BD55-5945 (protein)
chain 1: EEQLVESGGGLVQPGRSLRLSCAASGFTFGDYTMHWVRQPPGRGLEWVSRIFWNSGNIGYADSVKGRFTISRDNAKNSLYLQMNSLRAEDTALYYCAKEIGGLGYSGYDFFSGNAIDIWGRGTMVTVSS
chain 2: QSVLTQPPSVSGAPGQTVTISCTGTTSNIGAGYDVHWYQQLPGAAPKLLIYVNNNRPSGVPDRFSGSKSGTSASLAITGLQADDEADYYCQSFDSSLSGSYVFGTGTKVTVV
B7: BD55-1132 (protein)
chain 1: EVQLVESGGGLVQPGGSLRLSCVASGFTFSNYDMHWVRQTAGKGLEWVSLIGTNGDTYYPDSVKGRFTISRDNAKNSLYLQMSSLRAGDTAVYFCVRVQYYYPSGESFPIYYGLDVWGQGTTVIVSS
chain 2: DIQMTQSPSSLSVSVGDRVTITCRASQTIRTYLNWYQQKPGKAPKLLIYAASTLQSGVPPRFSGSGSGTEFTLTISSLQPEDFATYYCQQTYIIPPEDSFGQGTKLQIK
B8: BD55-5946 (protein)
chain 1: QDQLVQSGAEVKRPGSSVKVSCKTSGATFNNFAISWVRQAPGQGLEWMGRIIPILGIANYAQNFQDRVTIIADRSTSTAFLELSSLRSDDTAVYYCARGDGDYSMNYYYYHGMDLWGHGTTVTVSS
chain 2: QSVLTQPPSVSAAPGQKVTISCSGSSSNIGNNYVSWYQQLPGTAPKLLISDNNKRPSGIPDRFSGSKSGTSATLGITGLQTGDEAHYYCGTWDTSLSVGVFGGGTKLTVL
B9: BD55-5956 (protein)
chain 1: QVQLVQSGAEVKKPGASVKVSCKASGYTFNSYDINWVRQATGQGLQWMGWMNPNSGNTGYAHKFQGRLTMTRNTSISTAYMELSGLRSEDTAVYYCAIVTMVRGAIDYFQYGMDVWGQGTTVTVSS
chain 2: DIQMTQSPSSLSASVGDRVTITCRASQSISYYLNWYQQKPGKAPKLLIYGASSLQSGVPSRFSGSGSGTDFTLTIRSLQPEDFATYSCQQSYSTPYNFGQGTKVEI
B10: BD55-5959 (protein)
chain 1: EVQLVESGGGLVQPGRSLRLSCAASGFTFGDYAMHWVRQAPGKGLEWVSGISWNSGDIGYADSVKGRFTISRDNAKNSLYLQMNSLRAEDTAFYYCVKDMGYGDLTYYYGMDVWGQGTTVTVSS
chain 2: QSALTQPASVSGSPGQSITISCTGISSDVGSYNLVSWYQHYPGKAPKLMIYEGNKRPSGVSNRFSGSESGNTASLTISGLQAEDEADYFCCSYAGNSTRVFGGGTKLTVL
B11: BD55-5961 (protein)
chain 1: EVQLVESGGGLVKPGGSLRLSCAASGFSFSTYSMYWVRQAPGKGLEWVACLSSSGSLIFYADSVKGRFSISRDNAKNSLYLQMNSLRAEDTAVYYCARESDMPRGVDFDYWGQGTLVAVSS
chain 2: DIQMTQSPSSLSASVGDRVTITCRASQSIGNYLNWYQQKPGKAPKLLIYAASSLQSGVPSRFSGSGSGTDFTLTISSLQPEDFATYYCQQGYSTPGVTFGPGTKVDIK
B12: BD55-5965 (protein)
chain 1: QVQLVQSGAEVKKPGASVKVSCKASGYSFTSYDINWVRQGTGQGLEWMGWMNPNSGKTDYAHKFQGRVTMTRNTSISTAYMEMSSLRSEDTAVYYCAITYQLPLSHYYYAMDVWGQGTTVTVSS
chain 2: DIQMTQSPSSLSASVGDRVTITCRASQSISTYLNWYQQKPGKAPNLLIYDASSLQGGVPSRFSGRGSGTDFTLTISSVQPEDFAIYYCQQSYSFPSAFGQGTRVEIK

How the values were obtained:
Test in all cases: pseudovirus neutralization IC50; higher = weaker neutralization
[1] = molecular target: SARS-CoV-2 Omicron BA.1 spike pseudovirus
Experimental: (§1)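 Single-round VSV luciferase pseudovirus mixed with antibody dilutions for 1 h and put on Huh-7 cells for about a day; IC50 from the dose curve.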

[2] = molecular target: SARS-CoV-2 Omicron BA.2 spike pseudovirus
Experimental: as §1

[3] = molecular target: SARS-CoV-2 Omicron BA.2.75 spike pseudovirus
Experimental: as §1

[4] = molecular target: SARS-CoV-2 Omicron BA.5 spike pseudovirus
Experimental: as §1

[5] = molecular target: SARS-CoV-2 Omicron BQ.1.1 spike pseudovirus
Experimental: as §1

[6] = molecular target: SARS-CoV-2 Omicron XBB spike pseudovirus
Experimental: as §1

[7] = molecular target: SARS-CoV-2 early D614G spike pseudovirus
Experimental: as §1

Binder	pseudovirus neutralization IC50 [1] [µg/mL]	pseudovirus neutralization IC50 [2] [µg/mL]	pseudovirus neutralization IC50 [3] [µg/mL]	pseudovirus neutralization IC50 [4] [µg/mL]	pseudovirus neutralization IC50 [5] [µg/mL]	pseudovirus neutralization IC50 [6] [µg/mL]	pseudovirus neutralization IC50 [7] [µg/mL]
B1	> 10	> 10	> 10	> 10	> 10	> 10	> 10
B2	> 10	> 10	> 10	> 10	> 10	> 10	> 10
B3	0.16	> 10	> 10	> 10	> 10	> 10	0.0346
B4	> 10	> 10	> 10	> 10	> 10	> 10	> 10
B5	> 10	> 10	> 10	> 10	> 10	> 10	> 10
B6	> 10	> 10	> 10	> 10	> 10	> 10	0.0844
B7	> 10	> 10	> 10	> 10	> 10	> 10	> 10
B8	> 10	> 10	> 10	> 10	> 10	> 10	> 10
B9	> 10	> 10	> 10	> 10	> 10	> 10	> 10
B10	> 10	> 10	> 10	> 10	> 10	> 10	> 10
B11	> 10	> 10	> 10	> 10	> 10	> 10	> 10
B12	> 10	> 10	> 10	> 10	> 10	> 10	> 10
